From PMC12379584, “Characterization of the ligand binding pocket of the virulence regulator Rns, a member of the AraC/XylS family of transcription factors” (mSphere, 2025)
The exact form of at least one protein or probe is not confirmed. At least one verdict rests on a figure or table, not on a statement of the authors.

Amino acid sequences for entries named in this document (tags omitted). A change or cut given only in a name is not applied to a line headed by its entry.
UniProt P16114: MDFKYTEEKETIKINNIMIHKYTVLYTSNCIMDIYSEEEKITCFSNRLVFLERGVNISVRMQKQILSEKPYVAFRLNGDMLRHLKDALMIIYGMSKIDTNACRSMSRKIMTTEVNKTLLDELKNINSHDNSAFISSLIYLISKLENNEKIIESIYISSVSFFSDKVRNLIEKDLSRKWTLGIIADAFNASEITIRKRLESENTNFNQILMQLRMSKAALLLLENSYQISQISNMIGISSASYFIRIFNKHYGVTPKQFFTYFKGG

Biological target: MBP-Rns WT (enterotoxigenic Escherichia coli (ETEC)) (UniProt P16114)
Assay: EMSA
Details: no decanoic acid (DMSO); recombinant protein; protein details: N-terminal MBP; label: 5' Cy5.5 on both strands

Question: Does “TAGATGGAATGTGTTATTTTTTTATCAAAATTATATTTGT (double strand) [2107/2108 prototypical Rns binding site]” bind?
Answer: Result: binds
